Tested on: RPMI 8322 human melanoma cells
Test: Cell viability (CellTiter 96 dye conversion assay)
Type: cell-based
Details: read-out: µM to 50% cell viability; RPMI 8322 cells, 4 days with compound, 1µM to 10mM, 1% DMSO, triplicate

NCCOP(=O)(N(CCCl)CCCl)N(CCCl)CCCl
IC50: > 500 µM

Reference: patent publication EP1607399B1 (priority 2000, dated 2001)
